Laboratory results as given in PMC9218516, “SifR is an Rrf2-family quinone sensor associated with catechol iron uptake in Streptococcus pneumoniae D39” (The Journal of Biological Chemistry, 2022).
Construct, isoform or probe ends are uncertain for at least one entry. The comparison behind a weaker result is the experiment's own reference, which may not be listed here. Protein sequences can lack the tags named with them.

What was measured:
[1] = target: T1, SifR WT (Streptococcus pneumoniae D39) (UniProt A0A0H2ZNG7); assay: fluorescence anisotropy (dissociation); details: no TCEP, fluorescein-dT at 5' position 1 of strand 1, 25 mM Tris-HCl, 150 mM NaCl, 2 mM EDTA, 2 mM TCEP, pH 7.5, 25 C, ~10 nM labeled DNA (Fig S8: 50 mM Tris-HCl, 150 mM NaCl, pH 7.4, 25 C), recombinant protein, protein details: His6 removed by TEV, tag-free, label: 5'-fluorescein
T1 sequence (looked up, limits assumed): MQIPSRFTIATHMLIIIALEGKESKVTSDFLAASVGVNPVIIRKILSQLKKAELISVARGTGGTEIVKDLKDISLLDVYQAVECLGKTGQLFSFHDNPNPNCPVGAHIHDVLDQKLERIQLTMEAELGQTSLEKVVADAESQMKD

[2] = target: T1, SifR WT (Streptococcus pneumoniae D39); assay: fluorescence anisotropy; details: BQ-adducted protein, non-saturable, nonspecific; fluorescein-dT at 5' position 1 of strand 1; 25 mM Tris-HCl, 150 mM NaCl, 2 mM EDTA, 2 mM TCEP, pH 7.5, 25 C, ~10 nM labeled DNA (Fig S8: 50 mM Tris-HCl, 150 mM NaCl, pH 7.4, 25 C); recombinant protein; protein details: His6 removed by TEV, tag-free; label: 5'-fluorescein

Measured: binding result

TATAGTTGTAATAATAATAATTACAACGAG (double strand) [F-catE O/P]
binds more weakly: [1]; 0.3 uM BQ added to complex | [1]; 6 uM adrenochrome added to complex | [2]
